Pooled drug test results. Numbers come from NIAID ChemDB, via PubChem.

Shared fields: growth or infection tests; agent: Hepatitis C virus; measure: EC50

ECn: concentration that inhibits the pathogen or its effect by n%.

smiles | setting | cells | strain or isolate | read by | value
CC(C)Oc1nc(N)nc2ccc(-c3ccc(C(=O)NC4CCCC4)cc3)nc12 |  | Huh7 |  | replicon | 0.3–1 µM
N#Cc1cccc(-c2cnc3nc(N)nc(N4CCOCC4)c3n2)c1 |  | Huh7 |  |  | 1–10 µM
CNC(=O)c1c(-c2ccc(F)cc2)oc2cc(-c3c(C)noc3C)c(OCc3nccs3)cc12 |  | Huh7 |  | replicon | <1 µM
C[C@H](O)C(=O)Nc1ccc(-c2ccc3nc(NCc4ccc(S(N)(=O)=O)cc4)nc(NCC(F)(F)F)c3n2)cc1F |  |  |  | replicon | <0.1 µM
CNC(=O)c1c(-c2ccc(F)cc2)oc2cc(N3CCOCC3)c(OCc3nccn3Cc3ccccc3)cc12 |  | Huh7 |  | replicon | <1 µM
CCc1nc(N(C)C)nc(N[C@@H]2C[C@H](CO)[C@@H](O)[C@H]2O)c1-c1nc2ccccc2s1 |  | Huh7 | 1b | replicon | 0.14 µM
O=C(Nc1ccc(C2SC(=Nc3cccc(F)c3)N(Cc3ccco3)C2=O)cc1)[C@H]1CCCN1C(=O)Cc1ccncc1 |  | Huh7 |  | replicon | 0.1–1 µM
CNC(=O)c1c(-c2ccc(F)cc2)oc2cc(OC)c(OC(C)C)cc12 |  | Huh7 |  | replicon | <10 µM
CO[C@@H]1[C@H](O)[C@@H](CO)O[C@H]1n1cc(C#Cc2ccc(F)cc2)c(=O)[nH]c1=O |  | Huh7 |  | replicon | >300 µM
Nc1ncc(-c2nc3ccccc3s2)c(N[C@@H]2C[C@H](CO)[C@@H](O)[C@H]2O)n1 |  | Huh7 | 1b | replicon | 0.13 µM
CNC(=O)c1c(-c2cccnc2)oc2ccc(Cl)cc12 |  | Huh7 |  | replicon | >30 µM
CCOc1nc(NCc2ccc(-n3cncn3)cc2)nc2ccc(-c3ccc(F)cc3)nc12 |  |  |  | replicon | <0.1 µM
CCCCCc1ccc(C#Cc2cn([C@@H]3O[C@H](CO)[C@@H](O)[C@H]3OC)c(=O)[nH]c2=O)cc1 |  | Huh7 |  | replicon | >300 µM
NC(=O)CCNc1nc(NCc2ccc(F)cc2)nc2ccc(-c3ccc(F)cc3)nc12 |  |  |  | replicon | <0.1 µM
CO[C@@H](C(=O)N1CCC[C@@H]1C(=O)Nc1ccc(C2SC(=Nc3ccc(N4CCOCC4)cc3)N(Cc3ccccn3)C2=O)cc1)c1ccccc1 |  | Huh7 |  | replicon | <0.1 µM
COC1[C@H](n2cc(C#CCN(C)C)c(=O)[nH]c2=O)O[C@H](CO)[C@H]1O |  | Huh7 |  | replicon | >300 µM
CCOc1nc(NCc2ccc(S(N)(=O)=O)cc2)nc2ccc(-c3cccc(NS(=O)(=O)N(C)C)c3)nc12 |  |  |  | replicon | <0.1 µM
O=C(Nc1ccc(C2SC(=Nc3cccc(F)c3)N(Cc3cccnc3)C2=O)cc1)[C@H]1CCCN1C(=O)OCc1ccccc1 |  | Huh7 |  | replicon | <0.1 µM
COc1nc(N)nc2ncc(-c3ccc(F)cc3)nc12 |  | Huh7 |  |  | 0.3–1 µM
CC(C)N1CCN(S(=O)(=O)c2cc(-c3ccc4nc(NCc5ccc(S(N)(=O)=O)cc5)nc(NCC(F)(F)F)c4n3)ccc2Cl)CC1 |  |  |  | replicon | <0.1 µM
CC(C)C(=O)Nc1ccc(-c2cnc3nc(N)nc(N4CCOCC4)c3n2)cc1 |  | Huh7 |  |  | 1–10 µM
CO[C@@H]1[C@H](O)[C@@H](CO)O[C@H]1n1cc(C#Cc2ccc(C)cc2)c(=O)[nH]c1=O |  | Huh7 |  | replicon | >300 µM
COCCNc1nc(NCC(F)(F)F)c2nc(-c3ccc(F)cc3)ccc2n1 |  |  |  | replicon | <0.1 µM
C[C@@]1(O)[C@H](O)[C@@H](CO)O[C@H]1n1cnc2c(NCc3ccccc3)nc(N)nc21 |  | Huh7 | 1b | replicon | 24 µM
Nc1nc(N2CCOCC2)c2nc(-c3ccc(Cl)s3)cnc2n1 |  | Huh7 |  |  | 0.3–1 µM
CNC(=O)c1c(-c2ccc(F)cc2)oc2cc(S(=O)(=O)N3CCC(O)C3)c(OC(C)C)cc12 |  | Huh7 |  | replicon | <1 µM
O=C(Nc1ccc(C2SC(=Nc3ccc(N4CCOCC4)cc3)N(Cc3ccccn3)C2=O)cc1)[C@H]1CCCN1C(=O)NCc1ccccc1 |  | Huh7 |  | replicon | <0.1 µM
Nc1nc(N2CCOCC2)c2nc(-c3ccc(OC(F)(F)F)cc3)cnc2n1 |  | Huh7 |  |  | 0.3–1 µM
CCCCCCCCCCCCCCOC(=O)NC(CCC(=O)O)(CCC(=O)O)CCC(=O)O |  | Huh7-Luc | 1b | luciferase / replicon | 0.0081 µM
CNC(=O)c1c(-c2ccc(F)cc2)oc2cc(N3CC(C)OC(C)C3)c(OC(C)C)cc12 |  | Huh7 |  | replicon | <10 µM
O=C(Nc1ccc(C2SC(=Nc3ccc(F)c(C(F)(F)F)c3)N(Cc3ccco3)C2=O)cc1)[C@H]1CCCN1C(=O)OCc1ccccc1 |  | Huh7 |  | replicon | 1–5 µM
COc1nc(N)nc2c1ncn2[C@@H]1O[C@H](COP(=O)(N[C@@H](C)C(=O)OC(C)C)Oc2ccccc2)[C@@H](O)[C@@]1(C)F | 17 d |  | 2a | replicon | 0.019 µM
CCOc1nc(NCc2ccc(F)cc2)nc2ccc(-c3ccc(NC(=O)NCCN4CCOCC4)cc3)nc12 |  |  |  | replicon | <0.1 µM
Nc1nc(N2CCOCC2)c2nc(-c3ccc4c(c3)CC(=O)N4)cnc2n1 |  | Huh7 |  |  | 1–10 µM
CCOc1nc(NCc2cc(F)c(F)c(F)c2)nc2ccc(-c3ccc(F)cc3)nc12 |  |  |  | replicon | <0.1 µM
CO[C@@H]1[C@H](O)[C@@H](CO)O[C@H]1n1cc(C#Cc2ccccn2)c(=O)[nH]c1=O |  | Huh7 |  | replicon | >300 µM

For reference, 4 entries again:

smiles | setting | cells | strain or isolate | read by | value
CC(C)N1CCN(S(=O)(=O)c2cc(-c3ccc4nc(NCc5ccc(S(N)(=O)=O)cc5)nc(NCC(F)(F)F)c4n3)ccc2Cl)CC1 |  |  |  | replicon | <0.1 µM
CNC(=O)c1c(-c2ccc(F)cc2)oc2cc(N3CCOCC3)c(OCc3nccn3Cc3ccccc3)cc12 |  | Huh7 |  | replicon | <1 µM
CNC(=O)c1c(-c2ccc(F)cc2)oc2cc(N3CC(C)OC(C)C3)c(OC(C)C)cc12 |  | Huh7 |  | replicon | <10 µM
COC1[C@H](n2cc(C#CCN(C)C)c(=O)[nH]c2=O)O[C@H](CO)[C@H]1O |  | Huh7 |  | replicon | >300 µM

Two numbers with a dash give a range or band. An empty or dashed field is not shown. Rows are shuffled and stem from different studies.